Human monoclonal antibodies against the spike receptor-binding domain (heavy:light variable regions). IC50 against pseudoviruses bearing the spike of naturally observed variants; lower = stronger; >10 µg/ml means not reached at the top dose. No active / inactive call. The stated detection limit is 0.0005 µg/ml; values near or below 0.001 µg/ml lie at the floor of the assay.
B1: BD56-822 (protein)
chain 1: EVQLVQSGAEVKKPGESLKISCKGSGYSFTSYWIAWVRQMPGKGLEWMGIIYPGDSDTRYSPSFQGQVTISADKSISTAYLQWSSLKASDTAMYYCARGDSSGYYDYWGQGTLLTVSS
chain 2: DIQMTQSPSSLSASVGDRVTITCQASQDISNYLNWYQQKPGKAPKLLIYDASNLETGVPSRFSGSGSGTDFTFTISSLQPEDIATYYCQQYDNLLLTFGGGTKVEIK
B2: BD56-824 (protein)
chain 1: QVQLVQSGAEVKKPGSSVKVSCQASGGTFSSYAISWVRQAPGQGLEWMGGVIPILATANYAQKFQGRVTITADESTSTAYMELSSLRSEDTAVYYCAQRSEMASVWGQGTLVTVSS
chain 2: SYELTQPPSVSVSPGQTASITCSGNKLGDKYAYWYQQKPGQSPVLVIYEDSERPSGIPERFSGSNSGNTATLTISGTQAMDEADYYCQAWDSSTEVFGGGTKLTVL
B3: BD56-829 (protein)
chain 1: QVQLVQSGAEVKKPGSSVKVSCKASGGTFSSYAISWVRQAPGQGLEWMGGIIPIFGTANYAQKFQGRVTITADESTSTAYMELSSLRSEDTAVYYCARSTRMVATSRFDYWGQGTLVTVSS
chain 2: DIQMTQSPSSLSASVGDRVTITCQASQDISNYLNWYQQKPGKAPKLLIYDASNLETGVPSRFSGSGSGTDFTFTISSLQPEDIATYYCQQYDNLITFGQGTRLEIK
B4: BD56-832 (protein)
chain 1: EVQLVESGGGLVQPGGSLRLSCAASGFTVSSNYMSWVRQAPGKGLEWVSLIYAGGTTYYADSVKGRFTISRGNSKNTLYLQMNSLRAEDTAVYYCAREGSPTGDAGLAFDIWGQGTMVTVSS
chain 2: DIQMTQSPSSLSASVGDRVTITCQASQDINNYLNWYQQKPGKAPQLLIYDASNLETGVPSRFSGSGSGTDFTFTISSLQPEDIATYYCQQYDNLRTFGGGTKVEIK
B5: BD56-269 (protein)
chain 1: QVQLVQSGAEVKKPGSSVKVSCKASGGTFSSYAISWVRQAPGQGLEWMGGIIPIFGTSSYAQKFQGRVTITADEFTSTAYMGLSSLRSEDTAVYYCARGPVGPTVVTTFEYWGQGTLVIVSS
chain 2: DIQMTQSPSSLSASVGDRVTITCQASQDISNYLNWYQQKPGKAPELLIYDASNLETGVPSRFSGSGSGTDFTFTISSLQPEDLATYYCQQYDNLPLTFGGGTKVEIK

Molecular target: SARS-CoV-2 Omicron BA.1 spike pseudovirus
Test: pseudovirus neutralization IC50; higher = weaker neutralization
Protocol: (§1)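 Single-round VSV luciferase pseudovirus mixed with antibody dilutions for 1 h and put on Huh-7 cells for about a day; IC50 from the dose curve.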

Q: B1 was tested. Which “pseudovirus neutralization IC50” value did it give?
A: 31.7 ng/mL

Q: Which “pseudovirus neutralization IC50” value does the source give for B2 here?
A: 1.74 ng/mL

Q: For B3, which “pseudovirus neutralization IC50” value is on record?
A: 69.4 ng/mL

Q: How did the “pseudovirus neutralization IC50” value turn out when B4 was run?
A: 2.54 ng/mL

Q: With B5 as the binder, how does the “pseudovirus neutralization IC50” value read?
A: 2.24 ng/mL

Molecular target: SARS-CoV-2 Omicron BA.2 spike pseudovirus
Test: as above
Protocol: as §1

Q: With B1 as the binder, how does the “pseudovirus neutralization IC50” value read?
A: 0.0913 µg/mL

Q: Which “pseudovirus neutralization IC50” value does the source give for B2 here?
A: 0.000886 µg/mL

Q: With B3 as the binder, how does the “pseudovirus neutralization IC50” value read?
A: 0.0816 µg/mL

Q: Which “pseudovirus neutralization IC50” value does the source give for B4 here?
A: 0.00253 µg/mL

Q: B5 was tested. Which “pseudovirus neutralization IC50” value did it give?
A: 0.0163 µg/mL

Molecular target: SARS-CoV-2 Omicron BA.2.75 spike pseudovirus
Test: as above
Protocol: as §1

Q: How did the “pseudovirus neutralization IC50” value turn out when B1 was run?
A: 0.0727 µg/mL

Q: With B2 as the binder, how does the “pseudovirus neutralization IC50” value read?
A: 0.000927 µg/mL

Q: How did the “pseudovirus neutralization IC50” value turn out when B3 was run?
A: 0.12 µg/mL

Q: For B4, which “pseudovirus neutralization IC50” value is on record?
A: 3.74 µg/mL

Q: B5 was tested. Which “pseudovirus neutralization IC50” value did it give?
A: 0.0895 µg/mL

Molecular target: SARS-CoV-2 Omicron BA.2.75.2 spike pseudovirus
Test: as above
Protocol: as §1

Q: For B1, which “pseudovirus neutralization IC50” value is on record?
A: 0.458 µg/mL

Q: With B2 as the binder, how does the “pseudovirus neutralization IC50” value read?
A: > 10 µg/mL

Q: Which “pseudovirus neutralization IC50” value does the source give for B3 here?
A: > 10 µg/mL

Q: For B4, which “pseudovirus neutralization IC50” value is on record?
A: 4.5 µg/mL

Q: B5 was tested. Which “pseudovirus neutralization IC50” value did it give?
A: 0.46 µg/mL

Molecular target: SARS-CoV-2 Omicron BA.5 spike pseudovirus
Test: as above
Protocol: as §1

Q: For B1, which “pseudovirus neutralization IC50” value is on record?
A: 0.0903 µg/mL

Q: B2 was tested. Which “pseudovirus neutralization IC50” value did it give?
A: > 10 µg/mL

Q: With B3 as the binder, how does the “pseudovirus neutralization IC50” value read?
A: > 10 µg/mL

Q: B4 was tested. Which “pseudovirus neutralization IC50” value did it give?
A: 0.0118 µg/mL

Q: How did the “pseudovirus neutralization IC50” value turn out when B5 was run?
A: > 10 µg/mL

Molecular target: SARS-CoV-2 Omicron BM.1.1.1 spike pseudovirus
Test: as above
Protocol: as §1

Q: For B1, which “pseudovirus neutralization IC50” value is on record?
A: 0.522 µg/mL

Q: With B2 as the binder, how does the “pseudovirus neutralization IC50” value read?
A: > 10 µg/mL

Q: B3 was tested. Which “pseudovirus neutralization IC50” value did it give?
A: > 10 µg/mL

Q: For B4, which “pseudovirus neutralization IC50” value is on record?
A: 6.44 µg/mL

Q: Which “pseudovirus neutralization IC50” value does the source give for B5 here?
A: > 10 µg/mL

Molecular target: SARS-CoV-2 Omicron BQ.1.1 spike pseudovirus
Test: as above
Protocol: as §1

Q: With B1 as the binder, how does the “pseudovirus neutralization IC50” value read?
A: > 10 µg/mL

Q: Which “pseudovirus neutralization IC50” value does the source give for B2 here?
A: > 10 µg/mL

Q: B3 was tested. Which “pseudovirus neutralization IC50” value did it give?
A: > 10 µg/mL

Q: With B4 as the binder, how does the “pseudovirus neutralization IC50” value read?
A: > 10 µg/mL

Q: With B5 as the binder, how does the “pseudovirus neutralization IC50” value read?
A: > 10 µg/mL

Molecular target: SARS-CoV-2 Omicron BR.2 spike pseudovirus
Test: as above
Protocol: as §1

Q: B1 was tested. Which “pseudovirus neutralization IC50” value did it give?
A: 0.338 µg/mL

Q: Which “pseudovirus neutralization IC50” value does the source give for B2 here?
A: > 10 µg/mL

Q: Which “pseudovirus neutralization IC50” value does the source give for B3 here?
A: > 10 µg/mL

Q: For B4, which “pseudovirus neutralization IC50” value is on record?
A: 3.97 µg/mL

Q: How did the “pseudovirus neutralization IC50” value turn out when B5 was run?
A: > 10 µg/mL

Molecular target: SARS-CoV-2 Omicron CA.1 spike pseudovirus
Test: as above
Protocol: as §1

Q: With B1 as the binder, how does the “pseudovirus neutralization IC50” value read?
A: 0.418 µg/mL

Q: How did the “pseudovirus neutralization IC50” value turn out when B2 was run?
A: > 10 µg/mL

Q: Which “pseudovirus neutralization IC50” value does the source give for B3 here?
A: > 10 µg/mL

Q: For B4, which “pseudovirus neutralization IC50” value is on record?
A: 4.79 µg/mL

Q: Which “pseudovirus neutralization IC50” value does the source give for B5 here?
A: > 10 µg/mL

Molecular target: SARS-CoV-2 Omicron XBB spike pseudovirus
Test: as above
Protocol: as §1

Q: For B1, which “pseudovirus neutralization IC50” value is on record?
A: > 10 µg/mL

Q: B2 was tested. Which “pseudovirus neutralization IC50” value did it give?
A: > 10 µg/mL

Q: B3 was tested. Which “pseudovirus neutralization IC50” value did it give?
A: > 10 µg/mL

Q: For B4, which “pseudovirus neutralization IC50” value is on record?
A: 5.16 µg/mL

Q: Which “pseudovirus neutralization IC50” value does the source give for B5 here?
A: > 10 µg/mL

Molecular target: SARS-CoV-2 early D614G spike pseudovirus
Test: as above
Protocol: as §1

Q: For B1, which “pseudovirus neutralization IC50” value is on record?
A: > 10 µg/mL

Q: With B2 as the binder, how does the “pseudovirus neutralization IC50” value read?
A: > 10 µg/mL

Q: B3 was tested. Which “pseudovirus neutralization IC50” value did it give?
A: > 10 µg/mL

Q: With B4 as the binder, how does the “pseudovirus neutralization IC50” value read?
A: > 10 µg/mL

Q: How did the “pseudovirus neutralization IC50” value turn out when B5 was run?
A: > 10 µg/mL
